Reference: article PMC7993394 (Journal of Enzyme Inhibition and Medicinal Chemistry, 2021)

Target: BpHldC (Burkholderia pseudomallei, UniProt Q63XZ4)
Assay: malachite green kinetics, secondary plot of slope vs inhibitor
Details: read-out: βG1P / Ki; mixed type versus βG1P (varied) at 0.5 mM ATP; Tris pH 7.5, 10 mM MgCl2, room temperature

Question: Which Ki does the source give for CCOC(=O)c1sc(NC(=O)CSc2nnc(-c3ccccc3OCC)o2)c(C#N)c1C [compound 7991890, ethyl 4-cyano-5-[({[5–(2-ethoxyphenyl)-1,3,4-oxadiazol-2-yl]thio}acetyl)amino]-3-methyl-2-thiophenecarboxylate] here?
Answer: The Ki was 39.6 µM.

Question: For CCOC(=O)c1sc(NC(=O)CSc2nnc(-c3ccc(Cl)cc3)o2)c(C#N)c1C [compound 7933420, ethyl 5-[({[5–(4-chlorophenyl)-1,3,4-oxadiazol-2-yl]thio}acetyl)amino]-4-cyano-3-methyl-2-thiophene carboxylate], which Ki is on record?
Answer: The Ki was 6.02 µM.

Question: For CCOC(=O)c1sc(NC(=O)CSc2nnc(Cc3ccccc3)o2)c(C#N)c1C [compound 7929959, ethyl 5-({[(5-benzyl-1,3,4-oxadiazol-2-yl)thio]acetyl}amino)-4-cyano-3-methyl-2-thiophenecarboxylate], which Ki is on record?
Answer: The Ki was 0.15 µM.
